{"source": "patent US11801255B2", "about": "“Lipid disulfide prodrugs and uses related thereto” (priority 2017, dated 2023)", "tested_on": "HIV-1", "set-up": "TI90, HIV-1: unit not given beside the values", "details": "for therapeutic index (TI) at the EC50 / TI50, HIV-1, text: PBMCs; for TI90, HIV-1: at the EC90, data not shown", "method": "Compounds synthesized were evaluated against HIV-infected PBMCs and antiviral activity was assessed by measuring reverse transcriptase in cell supernatants. Compounds 11a-e, 12a-e, and 13 were assayed against HBV and qPCR was used to quantify viral DNA following incubation in HepG2.2.15 cells after 6 days.", "data": [{"compound": "CCCCCCCCCCSSCCOP(=O)(O)CO[C@H](C)Cn1cnc2c(N)ncnc21.N", "note": "[Compound 11a]", "values": [{"measurement": "therapeutic index (TI) at the EC50 / TI50, HIV-1, text", "value": 590}]}, {"compound": "CCCCCCCCCCCCCCSSCCOP(=O)(O)CO[C@H](C)Cn1cnc2c(N)ncnc21.N", "note": "[Compound 11c]", "values": [{"measurement": "therapeutic index (TI) at the EC50 / TI50, HIV-1, text", "value": "~30,000"}, {"measurement": "TI90, HIV-1", "value": "11,000"}]}, {"compound": "CCCCCCCCCCCCCCCCSSCCOP(=O)(O)COC(C)Cn1cnc2c(N)ncnc21", "note": "(stereo not drawn) [Compound 11d, 2-(hexadecyldisulfanyl)ethyl hydrogen (((1-(6-amino-9H-purin-9-yl)propan-2-yl)oxy)methyl)phosphonate]", "values": [{"measurement": "therapeutic index (TI) at the EC50 / TI50, HIV-1, text", "value": "exceeds 20,000"}, {"measurement": "TI90, HIV-1", "value": "11,000"}]}, {"compound": "tenofovir disoproxil fumarate [TDF, reference compound]", "values": [{"measurement": "TI90, HIV-1", "value": "1,300"}]}]}
